# PSTVd loop 15 mutant pool in Nicotiana benthamiana

Region: loop 15 of PSTVd (intermediate strain), upper and lower strand joined, each 5' to 3', the first 7 letters being the upper strand, closing pairs included. Wild type: GGAAACCGCUACUAC. Varied positions (N): GGAAACCGNNNNNNC.

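Three N. benthamiana plants were inoculated with the whole mutant pool. Samples came from the inoculated region at 5 days, the leaf margin at 10 and upper systemic leaves at 12.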

Values are reads per thousand in the sample; higher means more abundant, 0 means not found.
Each value is the mean of three plants.
"Pool" is the share in the plasmid pool used as inoculum, on the same scale.
The inoculated region was read from the minus strand, the other sites from the plus strand.

For GGAAACCGCGUCGUC (pool 0.192) the result was inoculated region 0.111; leaf margin 0.0349; systemic leaves 0.
For GGAAACCGGGGGGAC (pool 0.160) the result was inoculated region 0.0768; leaf margin 0.00668; systemic leaves 0.
For GGAAACCGGCCAGCC (pool 0.112) the result was inoculated region 0.0611; leaf margin 0.00742; systemic leaves 0.
For GGAAACCGGAUGAAC (pool 0.288) the result was inoculated region 0.0947; leaf margin 0.0121; systemic leaves 0.
For GGAAACCGUCCUCUC (pool 0.176) the result was inoculated region 0.101; leaf margin 0.0267; systemic leaves 0.
For GGAAACCGCGUCGAC (pool 0.224) the result was inoculated region 0.0740; leaf margin 0.00668; systemic leaves 0.
For GGAAACCGUAGCGCC (pool 0.240) the result was inoculated region 0.0720; leaf margin 0; systemic leaves 0.
For GGAAACCGCAUCUAC (pool 0.304) the result was inoculated region 0.0821; leaf margin 0.00742; systemic leaves 0.00537.
For GGAAACCGGUGAUCC (pool 0.208) the result was inoculated region 0.0849; leaf margin 0.0195; systemic leaves 0.
For GGAAACCGUCUACGC (pool 0.352) the result was inoculated region 0.111; leaf margin 0; systemic leaves 0.
For GGAAACCGUAACGAC (pool 0.224) the result was inoculated region 0.0684; leaf margin 0.0134; systemic leaves 0.
For GGAAACCGUGUAGUC (pool 0.336) the result was inoculated region 0.193; leaf margin 0.0175; systemic leaves 0.
For GGAAACCGUUUGUUC (pool 0.176) the result was inoculated region 0.239; leaf margin 0.142; systemic leaves 0.0546.
For GGAAACCGUUCGAGC (pool 0.224) the result was inoculated region 0.313; leaf margin 0; systemic leaves 0.00537.
For GGAAACCGCAGUAAC (pool 0.176) the result was inoculated region 0.0923; leaf margin 0.0200; systemic leaves 0.00760.
For GGAAACCGGAGGUUC (pool 0.192) the result was inoculated region 0.0850; leaf margin 0.00668; systemic leaves 0.
For GGAAACCGGACAACC (pool 0.240) the result was inoculated region 0.114; leaf margin 0.00668; systemic leaves 0.
For GGAAACCGUGGCUUC (pool 0.224) the result was inoculated region 0.144; leaf margin 0; systemic leaves 0.
For GGAAACCGUAAGGAC (pool 0.208) the result was inoculated region 0.367; leaf margin 0.0811; systemic leaves 0.0701.
For GGAAACCGCGGGAGC (pool 0.192) the result was inoculated region 0.114; leaf margin 0.0403; systemic leaves 0.
For GGAAACCGGUUUGGC (pool 0.240) the result was inoculated region 0.0785; leaf margin 0.0121; systemic leaves 0.
For GGAAACCGGCUGGUC (pool 0.160) the result was inoculated region 0.0848; leaf margin 0.0134; systemic leaves 0.0130.
For GGAAACCGUAGUGUC (pool 0.128) the result was inoculated region 0.0461; leaf margin 0.0121; systemic leaves 0.
For GGAAACCGCCCAAGC (pool 0.128) the result was inoculated region 0.120; leaf margin 0.00668; systemic leaves 0.
For GGAAACCGUGUACCC (pool 0.288) the result was inoculated region 0.0632; leaf margin 0.0108; systemic leaves 0.00760.
For GGAAACCGACUAACC (pool 0.176) the result was inoculated region 0.116; leaf margin 0.00668; systemic leaves 0.
For GGAAACCGCAUAUUC (pool 0.144) the result was inoculated region 0.148; leaf margin 0.0195; systemic leaves 0.0107.

The last 3 entries again:

| sequence | pool | inoculated region | leaf margin | systemic leaves |
|---|---|---|---|---|
| GGAAACCGUGUACCC | 0.288 | 0.0632 | 0.0108 | 0.00760 |
| GGAAACCGACUAACC | 0.176 | 0.116 | 0.00668 | 0 |
| GGAAACCGCAUAUUC | 0.144 | 0.148 | 0.0195 | 0.0107 |

The authors trace changes outside the varied positions to PCR and sequencing errors or to mutation in the plant; presence does not show that a variant is infectious alone.
Samples held 43,870 to 66,106 reads, so the smallest values rest on one or two reads.
Wild type was 33.9 per thousand in the pool and the most common sequence in every sample (inoculated region 202, 200, 159; leaf margin 724, 746, 710; systemic leaves 856, 883, 880).

Source: Wu et al. 2024 (doi:10.1371/journal.ppat.1012142), supplementary data.